From PMC10464103, “Antibacterial peptide PMAP-37(F34-R), expressed in Pichia pastoris, is effective against pathogenic bacteria and preserves plums” (Microbial Cell Factories, 2023)
Peptide text beside a SMILES is read from it.

Test system: plums
Assay: Antiseptic (preservative) effect on plums
Parameters: species or system plum

CC[C@H](C)[C@H](NC(=O)[C@H](CCCNC(=N)N)NC(=O)[C@H](CCC(=O)O)NC(=O)[C@@H](NC(=O)[C@H](CCCCN)NC(=O)[C@H](CCC(=O)O)NC(=O)CNC(=O)[C@H](CC(C)C)NC(=O)[C@H](CCCNC(=N)N)NC(=O)[C@H](CCCNC(=N)N)NC(=O)CNC(=O)[C@H](CCCNC(=N)N)NC(=O)[C@H](CC(=O)O)NC(=O)[C@H](CO)NC(=O)[C@H](CC(C)C)NC(=O)[C@H](Cc1ccccc1)NC(=O)[C@H](CC(=O)O)NC(=O)[C@H](CCCNC(=N)N)NC(=O)[C@H](CC(C)C)NC(=O)[C@H](CCCNC(=N)N)NC(=O)[C@H](CO)NC(=O)[C@H](CC(C)C)NC(=O)[C@H](CC(C)C)NC(=O)CN)[C@@H](C)CC)C(=O)NCC(=O)N[C@@H](CCC(N)=O)C(=O)N[C@@H](CCCCN)C(=O)N[C@H](C(=O)N[C@@H](CCCCN)C(=O)N[C@@H](CC(=O)O)C(=O)N[C@@H](CC(C)C)C(=O)N[C@@H](CO)C(=O)N[C@@H](CCC(=O)O)C(=O)N[C@@H](CCCNC(=N)N)C(=O)N[C@@H](Cc1ccccc1)C(=O)N[C@@H](CCC(N)=O)C(=O)N[C@@H](CO)C(=O)O)[C@@H](C)CC [PMAP-37(F34-R)] (H-GLLSRLRDFLSDRGRRLGEKIERIGQKIKDLSERFQS-OH; N-terminus and C-terminus assumed)
weight loss rate of plums (8 d of storage at 30 °C, sprayed with 5 mL of 0.36 µg/mL peptide): 12.22%
decay rate of plums (8 d of storage at 30 °C, sprayed with 5 mL of 0.36 µg/mL peptide, five plums per group): 60%
respiratory intensity of plums (storage at 30 °C up to 8 d, 0.36 µg/mL peptide versus sterile water): lower than that of the control group most of the time
